# Test results: the supplement of paper PMC9931576
# Human monoclonal antibodies against the spike receptor-binding domain (heavy:light variable regions). IC50 against pseudoviruses bearing the spike of naturally observed variants; lower = stronger; >10 µg/ml means not reached at the top dose. No active / inactive call. The stated detection limit is 0.0005 µg/ml; values near or below 0.001 µg/ml lie at the floor of the assay.
# B1: BD55-6690 (protein)
# chain 1: EVQLVQSGAEVKKPGESLKISCQGSGYDFTSYWIGWVRQMPGKGLEWMGIIYPGDSDSKYNPSFQGQVTISADKSVSTAYLQWSSLKASDTGIYYCVRHISGGRHCSGGSCYTPPYNAMDIWGLGTTVTVSS
# chain 2: YVLTQPPSVSLAPGGTARIPCGGSGIGSKSVHWYQQRPGQAPVLVVHDDTARPSGIPERFSGSNSGNTATLTITRVEAGDEADYYCQVWDNTSDHPVFGGGTKLTVL
# B2: BD55-6696 (protein)
# chain 1: EVQLVQSGAELKKPGESLRISCQASGYRFTNFWITWVRQTPGKGLEWMGRMDPTDSYAKYSPSFQGHVTFSADKSISTAYLQWSSLKASDTGTYYCARQLCGGDCPIDSWGPGTLVTVSS
# chain 2: DIQMTQSPSSVSASVGDRVTITCRASQGIRDYLAWFQQRPGEAPKSLIYTASSLHSGVPFRFSGSGSGTDFTLTISSLQPEDFATYYCQQYDTYPPTFGPGTKVEIK
# B3: BD55-6700 (protein)
# chain 1: QVYLVQSGGEVKQPGASVTVSCKTSGYTFTNYGINWLRQAPGQGLEWMGWISGYNGNTNYAQKFQDRVTLTTDTSTGTAYMDLKSLRSDDTATYYCARDANHDGTGHHYRGGPFNWFDPWGQGTLVTVSS
# chain 2: QSVLTQPPSASGTPGQRVTISCTGSYSNIGSNYVNWYQQLPGTAPKLLIYMNDQRPSGVPDRFSGSKSGASASLAISGLRSEDEAHYYCTAWDDSPSGPWVFGGGTKLTVL
# B4: BD55-6701 (protein)
# chain 1: QVQLVQSGAEVKKPGSSVKVSCKASGGTFHAISWVRQAPGQGLEWMGRIITMFGTTNYAQKFQGRVTITADNMELNNLTSDDTAVYYCARDLRGADYDLLTGYYPGGWFDPWGRGTLVTVSS
# chain 2: YVLTQSPSVSVAPGKTATISCGGDNIGSNSVQWYQQKPGQAPVLVIYYDNNRPSGIPERFSGSNSGNTATLTISRVEAGDEADFYCQVWDSTTNHQVFGGGTRLSVL
# B5: BD55-6702 (protein)
# chain 1: QLQLQESGSGLVKPSQTLSLTCAVSGGSISSGVYSWSWLRQPPGKGLEWIGYIYHSGSTYYNASLRSRVTISVDRSENQFSLRLNSVTAADTAVYFCARESSTSGFYYFDYWGQGTLVTVSS
# chain 2: DIQMTQTPSSLSASVGDRVTITCRASQSITMYLNWYQQKSGKAPKFLIYAASNLQSGVPSRFSGSGSGTDFTLTISSLQPEDFATYFCQQSYTTPYTFGQGTKLEIK
# B6: BD55-6703 (protein)
# chain 1: EVQLVESGGGLVQPGGSLRLSCAASGFTFSRHPMHWVRQAPGKGLEYVSAITSNGGGTFYANSVKGRFTISRDNSKNTLYLQMGSLTTEDMALYYCAREVAGNQLPYLVFDIWGRGTMVIVSS
# chain 2: DIQMTQSPSSLSAFIGDRVTITCRASQTIGTYLNWYQHKPGEAPKLLIYGASNLQSGVPSRFSGSGSGTAFTLTISSLRVEDLATYYCQQSYTTPQYTFGQGTKLEIK
# Target: SARS-CoV-2 Omicron BA.1 spike pseudovirus
# Experiment: pseudovirus neutralization IC50; higher = weaker neutralization
# Experimental: (§1)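 Single-round VSV luciferase pseudovirus mixed with antibody dilutions for 1 h and put on Huh-7 cells for about a day; IC50 from the dose curve.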
row,Binder,pseudovirus neutralization IC50
1,B1,> 10 µg/mL
2,B2,> 10 µg/mL
3,B3,> 10 µg/mL
4,B4,> 10 µg/mL
5,B5,> 10 µg/mL
6,B6,> 10 µg/mL

# Target: SARS-CoV-2 Omicron BA.2 spike pseudovirus
# Experiment: as above
# Experimental: as §1
row,Binder,pseudovirus neutralization IC50
1,B1,> 10 µg/mL
2,B2,> 10 µg/mL
3,B3,> 10 µg/mL
4,B4,> 10 µg/mL
5,B5,> 10 µg/mL
6,B6,> 10 µg/mL

# Target: SARS-CoV-2 Omicron BA.2.75 spike pseudovirus
# Experiment: as above
# Experimental: as §1
row,Binder,pseudovirus neutralization IC50
1,B1,> 10 µg/mL
2,B2,> 10 µg/mL
3,B3,> 10 µg/mL
4,B4,> 10 µg/mL
5,B5,> 10 µg/mL
6,B6,> 10 µg/mL

# Target: SARS-CoV-2 Omicron BA.5 spike pseudovirus
# Experiment: as above
# Experimental: as §1
row,Binder,pseudovirus neutralization IC50
1,B1,> 10 µg/mL
2,B2,> 10 µg/mL
3,B3,> 10 µg/mL
4,B4,> 10 µg/mL
5,B5,> 10 µg/mL
6,B6,> 10 µg/mL

# Target: SARS-CoV-2 Omicron BQ.1.1 spike pseudovirus
# Experiment: as above
# Experimental: as §1
row,Binder,pseudovirus neutralization IC50
1,B1,> 10 µg/mL
2,B2,> 10 µg/mL
3,B3,> 10 µg/mL
4,B4,> 10 µg/mL
5,B5,> 10 µg/mL
6,B6,> 10 µg/mL

# Target: SARS-CoV-2 Omicron XBB spike pseudovirus
# Experiment: as above
# Experimental: as §1
row,Binder,pseudovirus neutralization IC50
1,B1,> 10 µg/mL
2,B2,> 10 µg/mL
3,B3,> 10 µg/mL
4,B4,> 10 µg/mL
5,B5,> 10 µg/mL
6,B6,> 10 µg/mL

# Target: SARS-CoV-2 early D614G spike pseudovirus
# Experiment: as above
# Experimental: as §1
row,Binder,pseudovirus neutralization IC50
1,B1,> 10 µg/mL
2,B2,> 10 µg/mL
3,B3,> 10 µg/mL
4,B4,> 10 µg/mL
5,B5,> 10 µg/mL
6,B6,> 10 µg/mL
